The target in the test is HA-tagged PA of FluA (Influenza A virus). Description: ELISA. On the technique in general: ELISA stands for enzyme-linked immunosorbent assay.

The term IC50 denotes the concentration needed to halve the response being measured. Higher therefore signals weaker potency. Consider PB1 1-9, for which the IC50 was over 3000 nM.
The substance PB1 7-25 came in with an IC50 of over 3000 nM.
With PB1 1-16, the half-maximal inhibitory concentration (IC50) is 45.9 nM.
PB1 1-10 gave an IC50 of over 3000 nM.
Substance PB1 1-6 returned an IC50 of over 3000 nM.
With PB1 1-14, the half-maximal inhibitory concentration (IC50) stood at 34.5 nM.
On to PB1 1-8, for which the IC50 was over 3000 nM.
PB1 9-25 showed an IC50 of over 3000 nM.
As for PB1 5-25, the figure is 483 nM; as for PB1 1-7, over 3000 nM.
As to PB1 1-12, the IC50 came out at 644 nM.
Substance PB1 1-11 gave an IC50 of 900 nM.
PB1 3-25: the IC50 is 662 nM.
On to PB1 1-13, for which the IC50 is 138 nM.
Turning to PB1 11-25, the IC50 was over 3000 nM.
Regarding PB1 1-20, the IC50 was determined as 33.8 nM.

These data come from publication PMC2759517.
